Anti-infective test results gathered from many reports (values: NIAID ChemDB through PubChem).

All rows: tests in culture; agent: HIV-1

ECn is the concentration giving n% inhibition of infection, replication or growth. Blank or dashed fields: not listed here. Two numbers with a dash give a range or band. Neighbouring rows are from separate reports.

smiles | mutations | strain or isolate | cells | method | measure | value
Cc1ccnc2c1NC(=O)c1cccnc1N2C1CC1 | RT-K70R L100I | - | MT-4 | - | EC50 | <1.5 µM
Cc1ccnc2c1NC(=O)c1cccnc1N2C1CC1 | - | CLADE C | PBMC | RT activity | EC50 | 0.05 µM
CO[P@](=O)(c1cc(C)cc(/C=C/C#N)c1)c1c(C(N)=O)[nH]c2ccc(Cl)c(F)c12 | Y181C | Clinical isolate | MT-2 | - | EC50 | 0.0014 µM
Cc1occc1C(=S)Nc1ccc(Cl)c(/C=N/OC(C)(C)C)c1 | RT-Y181C | UC040-R (RT-Y181C) | CEM + CEM-SS | cytopathic effect / XTT | EC50 | 0.8 µM
CCc1c(Sc2ccccn2)n(COCc2ccccc2)c(=O)[nH]c1=O | RT-V108I | IIIB | CEM + CEM-SS | cytopathic effect / XTT | EC50 | 0.8 µM
O=C(O)P(=O)(O)O | - | 8791 CLADE A CLADE A | PBMC | p24 | EC50 | 21.4 µM
C#C[C@]1(CO)O[C@@H](n2cnc3c(N)nc(F)nc32)C[C@@H]1O | M41L/A114S/M184V/A400T | Clinical isolate | MT4-GFP | fluorescence | EC50 | 0.06234 µM
CCOP(=O)(COc1ccc(C[C@H](NC(=O)O[C@H]2CO[C@H]3OCC[C@H]32)[C@H](O)CN(CC(C)C)S(=O)(=O)c2ccc(OC)cc2)cc1)OCC | 8374-P36 GS-8374-resistant | IIIB | MT-2 | ATP | EC50 | 0.015 µM
CC(C)(C)NC(=O)[C@@H]1CN(Cc2cccnc2)CCN1C[C@@H](O)C[C@@H](Cc1ccccc1)C(=O)N[C@H]1c2ccccc2C[C@H]1O | RT-M41L E44D D67N T69D Y118I M184V L210W T215Y | 4755-5 NRTI resistant recombinant | PBMC | RT activity | EC50 | 0.0048 µM
Cc1ccc(S(=O)(=O)N(CC(C)C)C[C@@H](O)[C@H](Cc2ccccc2)NC(=O)O[C@H]2CO[C@H]3OCC[C@H]32)cc1 | 8374-P36 GS-8374-resistant | IIIB | MT-2 | ATP | EC50 | 0.0095 µM
O=c1[nH]cnc2c1ncn2[C@H]1CC[C@@H](CO)O1 | RT-A62T V118I M184V | Recombinant | HeLa | luciferase | EC50 | 5.01 µM
O=C(Nc1cc(S(=O)(=O)O)cc2cc(S(=O)(=O)O)c(N=Nc3ccc(N=Nc4c(S(=O)(=O)O)cc5cc(S(=O)(=O)O)cc(NC(=O)c6cccc(Cl)c6Cl)c5c4O)cc3)c(O)c12)c1ccc(Cl)cc1Cl | - | BaL | PBMC | - | EC90 | 0.24–0.63 µg/mL
O=S(=O)(c1ccccc1)c1ccccc1 | RT-Y181C | UC040-R (RT-Y181C) | CEM + CEM-SS | cytopathic effect / XTT | EC50 | >114 µM
Cc1cc(C#Cc2ccc(N)cc2)cc(C)c1Oc1ccnc(Nc2ccc(C#N)cc2)n1 | E138K | IIIB | MT-4 | MTT | EC50 | 0.101 µM
Cc1cn([C@H]2C[C@H](N=[N+]=[N-])[C@@H](CO)O2)c(=O)[nH]c1=O | RT-M41L D67N T69N K70R T215F K219E | NRTI resistant | HeLa | luciferase | EC50 | 0.344 µM
COC(=O)[C@H](C)NP(=O)(OC[C@@H]1C=C[C@H](n2cc(C)c(=O)[nH]c2=O)O1)Oc1ccc(Br)cc1 | RT-M41L T69ins L74V M184V L210W T215Y | 52534-2 NRTI resistant recombinant | PBMC | RT activity | EC50 | 0.0046 µM
CC(C)CN(C[C@@H](O)[C@H](Cc1ccccc1)NC(=O)O[C@H]1CCOC1)S(=O)(=O)c1ccc(N)cc1 | K112M K113E V128I | IIIB | MT-2 | p24 / ELISA | EC50 | 0.0473 µM
Nc1ccn([C@H]2CC[C@@H](CO)O2)c(=O)n1 | - | RF | C8166 | syncytia | EC50 | 0.13 µM
CC(C)c1nc(CN(C)C(=O)N[C@H](C(=O)N[C@@H](Cc2ccccc2)C[C@H](O)[C@H](Cc2ccccc2)NC(=O)OCc2cncs2)C(C)C)cs1 | PR-M46I I84V | NL4-3-P28 (PR M46I I84V) | MT-4 | p24 | EC90 | 0.9 µM
Cc1ccc(/C=C/c2cc(C)c(Oc3ccnc(Nc4ccc(C#N)cc4)n3)c(C)c2)cc1 | F227L + V106A | IIIB | MT-4 | MTT | EC50 | ≥2.267 µM
Cc1ccnc2c1NC(=O)c1cccnc1N2C1CC1 | - | IIIB | C8166 | ELISA | EC50 | 0.0334 µM
Cc1occc1C(=S)Nc1ccc(Cl)c(/C=N/OC(C)(C)C)c1 | RT-L100I T139I | Costatolide-resistant (RT L100I T139I) | CEM + CEM-SS | XTT | EC50 | 2.6 µM
C/C=C/CSc1cc(NC(=S)c2ccsc2C)ccc1Cl | RT-P236L | HEPT-resistant (RT P236L) | CEM + CEM-SS | cytopathic effect / XTT | EC50 | 0.4 µM
Nc1nc(=O)n([C@@H]2CS[C@H](CO)O2)cc1F | L74V | - | Primary T lymphocytes | p24 / ELISA | EC90 | 1.3 µM
CC(C)(C)NC(=O)[C@@H]1C[C@@H]2CCCC[C@@H]2CN1C[C@@H](O)[C@H](Cc1ccccc1)NC(=O)[C@H](CC(N)=O)NC(=O)c1ccc2ccccc2n1 | - | IIIB/LAI | HUT-78/IIIB/LAI + HUT 78 | syncytia | EC50 | >44 µM
Cc1ccnc2c1NC(=O)c1cccnc1N2C1CC1 | - | - | MAGI | β-galactosidase | EC50 | 0.088 µM
Cc1cn([C@H]2C[C@H](N=[N+]=[N-])[C@@H](CO)O2)c(=O)[nH]c1=O | - | BaL | MAC | cytopathic effect / XTT | EC50 | 0.03 µM
CC(=O)N1CCC(C(=O)N(CCCN2CCC(Cc3ccc(C(N)=O)cc3)CC2)c2ccc(C)c(Cl)c2)CC1 | - | X4 subtype D_2 recombinant | U87 (CD4+ CXCR4+) + U87 | luciferase | EC50 | >19 µM
O=C1N(Cc2ccc(CO)cc2)[C@H](Cc2ccccc2)[C@H](O)[C@@H](O)[C@@H](Cc2ccccc2)N1Cc1ccc(CO)cc1 | - | A018A | PBMC | p24 | EC50 | 0.07 µM
Cc1cc(C#Cc2ccc(C(=O)O)cc2)cc(C)c1Oc1ccnc(Nc2ccc(C#N)cc2)n1 | L100I | IIIB | MT-4 | MTT | EC50 | 0.289 µM
CC(C)OC(=O)OCOP(=O)(CO[C@H](C)Cn1cnc2c(N)ncnc21)OCOC(=O)OC(C)C | - | 62J | PBMC | p24 | EC50 | <0.005 µM
S=C(NCCc1cccs1)Nc1ccc(Br)cn1 | RT-M41L D67N K70R T215F K219Q | 780-1 Clinical isolate NRTI-resistant | HT4 + HeLa | plaque count | EC50 | 0.015 µM
Cc1cn([C@H]2C[C@H](N=[N+]=[N-])[C@@H](CO)O2)c(=O)[nH]c1=O | E138K | IIIB | MT-4 | MTT | EC50 | 0.007 µM
CCCc1cc(=O)oc2c3c(c4c(c12)OC(C)(C)C=C4)O[C@@H](C)[C@H](C)[C@@H]3O | - | CLADE E | PBMC | RT activity | EC50 | 0.4 µM
Cc1cn([C@H]2C[C@H](N=[N+]=[N-])[C@@H](CO)O2)c(=O)[nH]c1=O | - | LAI | Primary T lymphocytes | p24 / ELISA | EC50 | 0.03 µM
Cc1ccnc2c1NC(=O)c1cccnc1N2C1CC1 | - | WEJO | PBMC | cytopathic effect / XTT | EC50 | 0.06 µM
Cc1cn([C@H]2C[C@H](N=[N+]=[N-])[C@@H](CO)O2)c(=O)[nH]c1=O | RT-K103N | UC10-resistant (RT K103N) | CEM + CEM-SS | XTT | EC50 | 0.003 µM
Cc1cn([C@H]2C[C@H](N=[N+]=[N-])[C@@H](CO)O2)c(=O)[nH]c1=O | RT-Y181C | UC040-R (RT-Y181C) | CEM + CEM-SS | cytopathic effect / XTT | EC50 | 0.008 µM
O=S(=O)(c1ccccc1)c1ccccc1 | RT-T139I | Calanolide A-resistant (RT T139I) | CEM + CEM-SS | XTT | EC50 | 16 µM
Cc1cn([C@H]2C[C@H](N=[N+]=[N-])[C@@H](CO)O2)c(=O)[nH]c1=O | RT-M41L E44D D67N T69D Y118I M184V L210W T215Y | 4755-5 NRTI resistant recombinant | PBMC | p24 | EC50 | 0.165 µM
Cc1c(Sc2ccccc2)n(COCCO)c(=O)[nH]c1=O | RT-A98G V108I | IIIB | CEM + CEM-SS | cytopathic effect / XTT | EC50 | >325 µM
Cn1c2ccccc2c2c1cc(C#N)c(=O)n2-c1ccc([N+](=O)[O-])cc1 | RT-K65R K70R V75I F77L F116Y Q151M | NRTI resistant | HeLa | luciferase | EC50 | 0.043 µM
CCCc1cc(=O)oc2c3c(c4c(c12)OC(C)(C)C=C4)O[C@H](C)[C@@H](C)[C@@H]3O | RT-A98G V108I | TIBO R82150-resistant (RT A98G V108I) | CEM + CEM-SS | XTT | EC50 | 22 µM
O=C1Nc2ccc(Cl)cc2[C@@](C#CC2CC2)(C(F)(F)F)O1 | - | LAI | Primary T lymphocytes | p24 / ELISA | EC90 | 0.2 µM